Measured values from several laboratories, pooled; numbers as filed in NIAID ChemDB.

All rows: tests in culture; organism: Candida glabrata

Zones are inhibition diameters on agar. Blank or dashed fields: not listed here. Inhibition is in % at the dose shown (toxicity tests: loss of growth or viability). ECn is the concentration giving n% inhibition of infection, replication or growth. Neighbouring rows are from separate reports. MIC50, MIC90 and the like: level of inhibition, or share of isolates inhibited.

structure	measure	setting	method	dose	strain	result
O/N=C/c1cccc[n+]1Cc1ccc(Br)s1.[Cl-]	EC50	-	broth dilution	-	-	>20 µg/mL
Clc1ccc(C(c2ccccc2)n2ccnc2)cc1	MIC90	-	agar	-	-	0.5 µg/mL
Cc1cccc(C)c1N1C(=O)C=CC1=O	MIC80	-	broth dilution	-	DSM 11226	4 µg/mL
C[C@H]1[C@H](O)[C@@H](C)/C=C/C=C/C=C/C=C/C=C/C=C/C=C/[C@H](O[C@@H]2O[C@H](C)[C@@H](O)[C@H](N)[C@@H]2O)C[C@@H]2O[C@](O)(C[C@@H](O)C[C@@H](O)CC[C@H](O)[C@@H](O)C[C@@H](O)CC(=O)O[C@H]1C)C[C@H](O)[C@H]2C(=O)O	MFC	-	broth dilution	-	MTCC 3019	2 µg/mL
O/N=C\c1ccc(O)cc1	MIC100	-	broth dilution	-	-	>7290 µM
N#Cc1ccc(/C=C2\SC(=O)N(CC(O)(Cn3nccn3)c3ccc(F)cc3F)C2=O)cc1	MIC80	-	-	-	-	0.27 µg/mL
CN(C)CCN1C(=O)C=CC1=O	MIC80	-	broth dilution	-	DSM 11226	128 µg/mL
COc1cc(NC(C)CCCNC(=O)CCC(NC(=O)[C@H](N)CCCCN)C(=O)O)c2nc(C(C)(C)C)ccc2c1	EC50	-	broth dilution	-	-	>20 µg/mL
O/N=C\c1ccccc1Cl	MIC100	-	-	-	-	2850 µM
C[C@H]1[C@H](O)[C@@H](C)/C=C/C=C/C=C/C=C/C=C/C=C/C=C/[C@H](O[C@@H]2O[C@H](C)[C@@H](O)[C@H](N)[C@@H]2O)C[C@@H]2O[C@](O)(C[C@@H](O)C[C@@H](O)CC[C@H](O)[C@@H](O)C[C@@H](O)CC(=O)O[C@H]1C)C[C@H](O)[C@H]2C(=O)O	MIC99	-	broth dilution / absorbance	-	ATCC 90030	0.39 µM
COc1ccc(/C=C2\SC(=O)N(CC(O)(Cn3nccn3)c3ccc(F)cc3F)C2=O)cc1	MIC80	-	-	-	-	2.17 µg/mL
COc1ccc(C(c2ccc(OC)cc2)n2ccnc2)cc1	MIC90	-	agar	-	-	>256 µg/mL
NC(=O)c1cc[n+](CCCC[n+]2ccccc2/C=N/O)cc1.[Br-].[Br-]	EC50	-	broth dilution	-	-	>20 µg/mL
O=C1O/C(=C\c2ccc(OCC(O)(Cn3cncn3)c3ccc(F)cc3F)cc2)C(c2ccc(F)cc2F)=C1c1ccc(Cl)cc1	MIC50	-	broth dilution	-	ATCC 90030	4 µg/mL
Nc1nc(/N=C/c2ccccn2)n[nH]1.Nc1nc(/N=C/c2ccccn2)n[nH]1.[O]=[V+2]	inhibition	-	agar diffusion / agar	200 µg/mL	-	78%
O/N=C/c1cc[n+](Cc2cc(C[n+]3ccc(/C=N/O)cc3)on2)cc1.[Br-].[Br-]	EC50	-	broth dilution	-	-	>20 µg/mL
O=C1S/C(=C\c2ccco2)C(=O)N1CC(O)(Cn1nccn1)c1ccc(F)cc1F	MIC80	-	-	-	-	0.29 µg/mL
C[C@H]1[C@H](O)[C@@H](C)/C=C/C=C/C=C/C=C/C=C/C=C/C=C/[C@H](O[C@@H]2O[C@H](C)[C@@H](O)[C@H](N)[C@@H]2O)C[C@@H]2O[C@](O)(C[C@@H](O)C[C@@H](O)CC[C@H](O)[C@@H](O)C[C@@H](O)CC(=O)O[C@H]1C)C[C@H](O)[C@H]2C(=O)O	MFC	-	visual reading	-	MTCC 3019	2 µg/mL
C=CC(C)(C)c1cc(C2CC(=O)c3c(cc(O)c(CC=C(C)C)c3O)O2)c(O)cc1O	zone	-	agar diffusion / agar	2 mg/mL	hemoculture isolate 35202	11 mm
Nc1nc(/N=C/c2c([O-])ccc3ccccc23)n[nH]1.Nc1nc(/N=C/c2c([O-])ccc3ccccc23)n[nH]1.[O]=[V+2]	inhibition	-	agar diffusion / agar	200 µg/mL	-	55%
Cc1ccc(-c2c3c(N)c4c(nc3nc3c2c(C)nn3-c2ccccc2)CCCC4)cc1	MIC80	-	broth dilution / absorbance	-	CCC 115	>250 µg/mL
CC(C)(C)c1ccccc1N1C(=O)C=CC1=O	MIC80	-	broth dilution	-	DSM 11226	2 µg/mL
C/C(=N\c1n[nH]c(N)n1)c1ccccn1.C/C(=N\c1n[nH]c(N)n1)c1ccccn1.[O]=[V+2]	inhibition	-	agar diffusion / agar	200 µg/mL	-	75%
Clc1ccc(COC(Cn2ccnc2)c2ccc(Cl)cc2Cl)c(Cl)c1	EC90	pH 6	broth dilution	-	40 isolates	1 µg/mL
NC=Nc1ccc(SCc2cc(Br)cc(Br)c2)cc1	MFC	-	-	-	BG2	>100 µM
Cc1ccccc1N1C(=O)C[C@@H](C)C1=O	MIC	-	broth dilution / turbidity	-	CCC 115-2000	125 µg/mL
CC(=O)N1CCN(c2ccc(OC[C@H]3CO[C@](Cn4ccnc4)(c4ccc(Cl)cc4Cl)O3)cc2)CC1	EC90	pH 5	broth dilution	-	40 isolates	>16 µg/mL
NC(=S)N/N=C/c1ccsc1/C=N/NC(N)=S	MIC80	-	broth dilution	-	LMA 90-1085	>250 µg/mL
O=C1C=CC(=O)N1c1ccccc1	MIC80	-	broth dilution	-	DSM 11226	2 µg/mL
CC(=O)N1CCN(c2ccc(OC[C@H]3CO[C@](Cn4ccnc4)(c4ccc(Cl)cc4Cl)O3)cc2)CC1	zone	-	agar diffusion / agar	20 mg/mL	G2	12 mm
CC1C(=O)N(Cc2ccccc2)C(=O)C1C	MIC	-	broth dilution / turbidity	-	CCC 115-2000	125 µg/mL
Clc1ccc(C(c2ccccc2)n2cncn2)cc1	MFC	-	broth dilution	-	-	128 µg/mL
NC(=O)N/N=C/c1ccsc1.NC(=O)N/N=C/c1ccsc1.[Cl][Ni][Cl]	MIC80	-	turbidity / absorbance	-	LMA 1085	62 µg/mL
CCOc1ccc2nc3cc(N=C4NC(=O)/C(=C\C=C\c5ccc([N+](=O)[O-])o5)S4)ccc3c(N)c2c1	MFC	-	broth dilution	-	-	1000 µg/mL
CCCCCOc1ccc(-c2cc(-c3ccc(C(=O)N[C@H]4C[C@@H](O)[C@@H](O)NC(=O)[C@@H]5[C@@H](O)[C@@H](C)CN5C(=O)[C@H]([C@H](O)CC(N)=O)NC(=O)[C@H]([C@H](O)[C@@H](O)c5ccc(O)c(OS(=O)(=O)O)c5)NC(=O)[C@@H]5C[C@@H](O)CN5C(=O)[C@H]([C@@H](C)O)NC4=O)cc3)no2)cc1	EC50	-	broth dilution	-	RC-201	0.016 µg/mL
C[C@H]1[C@H](O)[C@@H](C)/C=C/C=C/C=C/C=C/C=C/C=C/C=C/[C@H](O[C@@H]2O[C@H](C)[C@@H](O)[C@H](N)[C@@H]2O)C[C@@H]2O[C@](O)(C[C@@H](O)C[C@@H](O)CC[C@H](O)[C@@H](O)C[C@@H](O)CC(=O)O[C@H]1C)C[C@H](O)[C@H]2C(=O)O	MFC	-	broth dilution	-	-	12.5 µg/mL
C=CCc1ccc(O)c(OC)c1	MIC90	-	turbidity	-	3080	500 µg/mL
Nc1ncccc1-c1cc(Cc2ccc(COc3ccccn3)cc2)no1	MIC90	-	broth dilution	-	-	0.06 µg/mL
CC1C(=O)N(CCCc2ccccc2)C(=O)C1C	MIC	-	broth dilution / turbidity	-	CCC 115-2000	125 µg/mL
c1ccc(C(c2ccccc2)n2nnc3ccccc32)cc1	MFC	-	broth dilution	-	-	>256 µg/mL
C[C@@H](c1ncncc1F)[C@](O)(Cn1cncn1)c1ccc(F)cc1F	MIC50	-	broth dilution	-	-	0.12 µg/mL
NC=Nc1cccc(SCc2cc(Br)cc(Br)c2)c1	MFC	-	-	-	BG2	10 µM
Cc1ccc(-c2c3c(N)c4c(nc3nc3c2c(C)nn3-c2ccccc2)CCC4)cc1	MIC50	-	broth dilution / absorbance	-	CCC 115	>250 µg/mL
CN(C)c1ccc(/C=C2\SC(=O)N(CC(O)(Cn3nccn3)c3ccc(F)cc3F)C2=O)cc1	MIC80	-	-	-	-	4.12 µg/mL
NN(Cc1ccccc1)CC(O)(Cn1cncn1)c1ccc(F)cc1F	MIC80	-	-	-	ATCC 34138	2 µg/mL
CCCCCOc1ccc(-c2cc(-c3ccc(C(=O)N[C@H]4C[C@@H](O)[C@@H](O)NC(=O)[C@@H]5[C@@H](O)[C@@H](C)CN5C(=O)[C@H]([C@H](O)CC(N)=O)NC(=O)[C@H]([C@H](O)[C@@H](O)c5ccc(O)c(OS(=O)(=O)O)c5)NC(=O)[C@@H]5C[C@@H](O)CN5C(=O)[C@H]([C@@H](C)O)NC4=O)cc3)no2)cc1	MIC50	-	broth dilution	-	-	0.03 µg/mL
C[C@@H]1CC(=O)N(c2ccccc2)C1=O	MIC	-	broth dilution / turbidity	-	CCC 115-2000	62.5 µg/mL
CC(C)C[C@H](N)C(=O)O	MIC100	-	broth dilution	-	G 212	>72000 µg/mL
Cc1ccc(/C=N/Nc2ccnc3cc(Cl)ccc23)cc1	MFC	-	-	-	-	40 µg/mL
CC1CC(=O)N(c2ccccc2)C1=O	MIC	-	broth dilution / turbidity	-	CCC 115-2000	125 µg/mL
O=[N+]([O-])c1cccc(/C=N\O)c1	MIC100	-	-	-	-	3010 µM
Cc1ccc(-c2c3c(N)c4c(nc3nc3c2c(C)nn3-c2ccccc2)CCCCC4)cc1	MIC50	-	broth dilution / absorbance	-	CCC 115	250 µg/mL
COc1ccc(/C=N\O)cc1	MFC	-	broth dilution	-	-	6620 µM
C/C(=N\c1n[nH]c(N)n1)c1ccccn1	inhibition	-	agar diffusion / agar	200 µg/mL	-	58%
NC(=O)c1cc[n+](Cc2ccc(C[n+]3ccc(/C=N/O)cc3)s2)cc1.[Cl-].[Cl-]	EC50	-	broth dilution	-	-	>20 µg/mL
Nc1nc(/N=C/c2ccc[nH]2)n[nH]1	inhibition	-	agar diffusion / agar	200 µg/mL	-	60%
O/N=C\c1ccccc1O	MIC100	-	-	-	-	3600 µM
COc1ccc(C(c2ccc(OC)cc2)n2cncn2)cc1	MIC90	-	agar	-	-	>256 µg/mL
CC(C)CC(O)C(=O)O	EC50	-	broth dilution	-	CCUG 32725	18000 µg/mL
C[C@H]1[C@H](O)[C@@H](C)/C=C/C=C/C=C/C=C/C=C/C=C/C=C/[C@H](O[C@@H]2O[C@H](C)[C@@H](O)[C@H](N)[C@@H]2O)C[C@@H]2O[C@](O)(C[C@@H](O)C[C@@H](O)CC[C@H](O)[C@@H](O)C[C@@H](O)CC(=O)O[C@H]1C)C[C@H](O)[C@H]2C(=O)O	MIC100	-	broth dilution	-	-	<0.3 µg/mL
CN[C@H]1CC[C@@H](c2ccc(Cl)c(Cl)c2)c2ccccc21	MFC	-	broth dilution	-	Clinical isolate PAT2ISO3	16 µg/mL
O=C1S/C(=C\c2ccc(F)cc2)C(=O)N1CC(O)(Cn1nccn1)c1ccc(F)cc1F	MIC80	-	-	-	-	0.54 µg/mL
C[C@@H](c1ncncc1F)[C@](O)(Cn1cncn1)c1ccc(F)cc1F	EC90	pH 6	broth dilution	-	40 isolates	4 µg/mL

8 of the rows above, restated:

structure | measure | setting | method | dose | strain | result
O=C1S/C(=C\c2ccco2)C(=O)N1CC(O)(Cn1nccn1)c1ccc(F)cc1F | MIC80 | - | - | - | - | 0.29 µg/mL
CN[C@H]1CC[C@@H](c2ccc(Cl)c(Cl)c2)c2ccccc21 | MFC | - | broth dilution | - | Clinical isolate PAT2ISO3 | 16 µg/mL
C/C(=N\c1n[nH]c(N)n1)c1ccccn1.C/C(=N\c1n[nH]c(N)n1)c1ccccn1.[O]=[V+2] | inhibition | - | agar diffusion / agar | 200 µg/mL | - | 75%
CCCCCOc1ccc(-c2cc(-c3ccc(C(=O)N[C@H]4C[C@@H](O)[C@@H](O)NC(=O)[C@@H]5[C@@H](O)[C@@H](C)CN5C(=O)[C@H]([C@H](O)CC(N)=O)NC(=O)[C@H]([C@H](O)[C@@H](O)c5ccc(O)c(OS(=O)(=O)O)c5)NC(=O)[C@@H]5C[C@@H](O)CN5C(=O)[C@H]([C@@H](C)O)NC4=O)cc3)no2)cc1 | MIC50 | - | broth dilution | - | - | 0.03 µg/mL
Cc1ccccc1N1C(=O)C[C@@H](C)C1=O | MIC | - | broth dilution / turbidity | - | CCC 115-2000 | 125 µg/mL
NC=Nc1cccc(SCc2cc(Br)cc(Br)c2)c1 | MFC | - | - | - | BG2 | 10 µM
C[C@H]1[C@H](O)[C@@H](C)/C=C/C=C/C=C/C=C/C=C/C=C/C=C/[C@H](O[C@@H]2O[C@H](C)[C@@H](O)[C@H](N)[C@@H]2O)C[C@@H]2O[C@](O)(C[C@@H](O)C[C@@H](O)CC[C@H](O)[C@@H](O)C[C@@H](O)CC(=O)O[C@H]1C)C[C@H](O)[C@H]2C(=O)O | MIC99 | - | broth dilution / absorbance | - | ATCC 90030 | 0.39 µM
Nc1nc(/N=C/c2c([O-])ccc3ccccc23)n[nH]1.Nc1nc(/N=C/c2c([O-])ccc3ccccc23)n[nH]1.[O]=[V+2] | inhibition | - | agar diffusion / agar | 200 µg/mL | - | 55%